Pooled drug test results. Numbers come from NIAID ChemDB, via PubChem.

Common to all: tests in culture; species: HIV-1

Rows are shuffled and stem from different studies. An empty or dashed field is not shown. ECn: concentration that inhibits the pathogen or its effect by n%.

compound,changes,read-out,strain,method,cell line,result
CC(C)=CCOc1cc(NC(=S)c2ccoc2C)ccc1Cl,-,EC50,IIIB,cytopathic effect / XTT,CEMx174 + CEM,0.01 µM
CCc1c(Cc2cccc(Cc3nc(N4CCCCC4)[nH]c(=O)c3CC)c2)nc(N2CCCCC2)[nH]c1=O,-,EC50,-,cytopathic effect / MTT,MT-4,>75 µM
Cc1cn([C@H]2C=C[C@@H](COC(=O)NCCC3=CCCCC3)O2)c(=O)[nH]c1=O,-,EC50,IIIB,p24,PBMC,50 µM
Cc1sccc1C(=O)Nc1ccc(Cl)c(OCC=C(Cl)Cl)c1,RT-L100I,EC50,TIBO R82150-resistant (RT L100I),syncytia,CEM,0.53 µg/mL
CC(C)CN(C[C@@H](O)[C@H](Cc1ccccc1)NC(=O)O[C@H]1CO[C@H]2OCC[C@H]21)S(=O)(=O)c1ccc2nc(CO)[nH]c2c1,-,EC50,LAI WT,cytopathic effect / MTT,MT-4,1.995 µM
O=C(NNCCO)c1[nH]c2ccc(Cl)cc2c1Sc1ccccc1,-,EC50,IIIB,cytopathic effect / MTT,C8166,0.3 µM
Nc1ccn([C@H]2CO[C@@H](CO)S2)c(=O)n1,RT-M184V,EC50,NL4-3,p24,PBMC,9.6 µM
Cc1cccc(S(=O)(=O)c2c(C(=O)NCCO)[nH]c3ccc(Cl)cc23)c1,-,EC50,BAL R5,p24,Macrophage + Macrophages,0.08 µM
Cc1cn([C@H]2C=C[C@@H](COC(=O)NCCc3ccccc3Cl)O2)c(=O)[nH]c1=O,-,EC50,IIIB,p24,PBMC,12.9 µM
NC(=O)c1[nH]c2ccc(Cl)cc2c1S(=O)(=O)c1ccccc1,RT-Y181C,EC50,-,cytopathic effect / MTT,MT-4,0.08 µM
CCN1C(=O)NC(=O)C(C(C)C)C1CC1CC(C)CC(C#N)C1=O,Y181C,EC50,-,p24 / ELISA,C8166,0.06551 µM
CC(C)=CCOc1cc(NC(=S)c2ccsc2C)ccc1Cl,RT-K103N,EC50,NL4-3 (RT K103N),cytopathic effect / XTT,CEM + CEM-SS,0.07 µM
Cc1ccc(Sc2c(C(=O)NCCO)[nH]c3ccc(Cl)cc23)c(C)c1,-,EC50,IIIB,cytopathic effect / MTT,MT-4,0.01 µM
COc1ccc(OC)c(CCNC(=O)OC[C@@H]2C=C[C@H](n3cc(C)c(=O)[nH]c3=O)O2)c1,-,EC50,IIIB,p24,PBMC,>100 µM
COc1ccc(NC(=O)c2ccoc2C)cc1OCC=C(Cl)Cl,-,EC50,IIIB,syncytia,CEM,0.25 µg/mL
COc1cnc(-n2cnc(C)n2)c2[nH]cc(C(=O)C(=O)N3CCC(=C(c4ccccc4)c4cc(F)cc(F)c4)CC3)c12,-,EC50,-,luciferase,HeLa,<1 µM
COc1ccnc2[nH]cc(C(=O)C(=O)N3C4CCCC3CN(C(=O)c3ccccc3)C4)c12,-,EC99,QH0692,luciferase,TZM-bl,124 µM
Cc1ccc(S(=O)(=O)c2c(C(=O)NNCCO)[nH]c3ccc(Cl)cc23)cc1,-,EC50,IIIB,cytopathic effect / MTT,C8166,0.1 µM
Nc1nc(NC2CC2)c2ncn([C@H]3C=C[C@@H](CO)C3)c2n1,-,EC50,SF162,p24,MDM + PBMC,>0.5 µM
CCOCn1c(Cc2cccc(Cc3[nH]c(=O)[nH]c(=O)c3CC)c2)c(CC)c(=O)[nH]c1=O,RT-K103N Y181C,EC50,RT-K103N+Y181C NNRTI-resistant,cytopathic effect / MTT,MT-4,>100 µM
COc1ccnc2[nH]cc(C(=O)C(=O)N3C4CC3CN(C(=O)c3ccccc3)C4)c12,-,EC99,SF162,luciferase,TZM-bl,>>250 µM
Cc1cc([N+](=O)[O-])cc(C)c1OCC(=O)N[C@@H](Cc1ccccc1)[C@H](O)CN(CC(C)C)S(=O)(=O)c1ccc2c(c1)ncn2CCN(C)C,-,EC50,LAI WT,cytopathic effect / MTT,MT-4,1.995 µM
COc1ncc(OC)c2c(C(=O)C(=O)N3CCC(=C(C(N)=O)c4ccccc4)CC3)c[nH]c12,-,EC50,-,luciferase,HeLa,<1 µM
CCc1c(Cc2cccc(Cc3[nH]c(=O)[nH]c(=O)c3CC)c2)[nH]c(=O)[nH]c1=O,RT-Y181C,EC50,NNRTI-resistant,cytopathic effect / MTT,MT-4,>100 µM
C/C(Cl)=C/COc1cc(NC(=O)c2ccoc2C)ccc1Cl,RT-E138K,EC50,TSAO-m3T-resistant (RT E138K),syncytia,CEM,0.32 µg/mL
COc1cnc(-n2ccnn2)c2[nH]cc(C(=O)C(=O)N3CCC(=C(c4ccccc4)c4nnc(C5CC5)o4)CC3)c12,-,EC50,-,luciferase,HeLa,<1 µM
O=C(NNCCO)c1[nH]c2ccc(Cl)cc2c1S(=O)(=O)c1ccccc1,-,EC50,IIIB,cytopathic effect / MTT,C8166,0.02 µM
Cc1cc(OCC(=O)N[C@@H](Cc2ccccc2)[C@H](O)CN(CC(C)C)S(=O)(=O)c2ccc3nc[nH]c3c2)no1,-,EC50,LAI WT,cytopathic effect / MTT,MT-4,0.501 µM
CCc1c(Cc2cccc(Cc3nc(SC)[nH]c(=O)c3CC)c2)nc(SC)[nH]c1=O,RT-Y181C,EC50,NNRTI-resistant,cytopathic effect / MTT,MT-4,>100 µM
COc1cnc(-n2cnc(C)n2)c2[nH]cc(C(=O)C(=O)N3CCC(=C(c4ccccc4)c4cccc(CO)c4)CC3)c12,-,EC50,-,luciferase,HeLa,<1 µM
C=C(C)[C@@H]1CC[C@]2(C(=O)NCCCCCCCC(=O)N[C@@H](CC(C)C)[C@@H](O)CC(=O)O)CC[C@]3(C)[C@H](CC[C@@H]4[C@@]5(C)CC[C@H](O)C(C)(C)[C@@H]5CC[C@]43C)[C@@H]12,-,EC50,APO 595,p24 / RT activity,PBMC,0.2 µM
Cc1ccc(Sc2c(C(=O)NNCCO)[nH]c3ccc(Cl)cc23)cc1,-,EC50,IIIB,cytopathic effect / MTT,C8166,0.8 µM
COc1cnc(-c2ccc(C(=O)OC(C)C)cc2)c2[nH]cc(C(=O)C(=O)N3CCC(=C(C#N)c4ccccc4)CC3)c12,-,EC50,-,luciferase,HeLa,<1 µM
CCc1c(Cc2cccc(Cc3nc(SC)n(C)c(=O)c3CC)c2)nc(SC)nc1OC,RT-Y181C,EC50,NNRTI-resistant,cytopathic effect / MTT,MT-4,>80 µM
Cc1cc(C)cc(Sc2c(C(=O)NNCCO)[nH]c3ccc(Cl)cc23)c1,RT-Y181C,EC50,-,cytopathic effect / MTT,MT-4,1 µM
O=C(C(=O)N1CCC(=Cc2ccccc2)CC1)c1c[nH]c2c(-c3ncon3)ccc(F)c12,-,EC50,-,luciferase,HeLa,<1 µM
Cc1sc(-c2ccncc2)c(C2=CCC(C)(C)CC2)c1[C@H](OC(C)(C)C)C(=O)O,-,EC50,NL4-3,luminescence,MT-4,0.032 µM
N#Cc1cc(Cl)cc(Oc2c(Br)ccc(CC(=O)Nc3ccc(S(N)(=O)=O)cc3Cl)c2F)c1,Y181I,EC50,-,-,MT-4,0.0008 µM
O=C(O)CCC(CCC(=O)O)(CCC(=O)O)NC(=O)CCC(CCC(=O)NC(CCC(=O)O)(CCC(=O)O)CCC(=O)O)(CCC(=O)NC(CCC(=O)O)(CCC(=O)O)CCC(=O)O)NC(=O)CCCOC(=O)C1(C(=O)OCCCC(=O)NC(CCC(=O)NC(CCC(=O)O)(CCC(=O)O)CCC(=O)O)(CCC(=O)NC(CCC(=O)O)(CCC(=O)O)CCC(=O)O)CCC(=O)NC(CCC(=O)O)(CCC(=O)O)CCC(=O)O)C2c3cc4c5c6c3-c3c(cc7c8c3C6C3c6c-5c(cc5ccc9cc(c-8c3c9c65)C7)C4)C21,-,EC50,AZT/3TC-resistant (RT M184V T215Y),cytopathic effect,PBMC,0.58 µM
CC(C)CN(C[C@@H](O)[C@H](Cc1ccccc1)NC(=O)OCc1cncs1)S(=O)(=O)c1ccc2ncn(CCc3ccccc3)c2c1,-,EC50,LAI WT,cytopathic effect / MTT,MT-4,0.1 µM
Cc1occc1C(=S)Nc1ccc(Cl)c(OCC=C(Cl)Cl)c1,RT-K103N,EC50,TIBO R82913-resistant (RT K103N),syncytia,CEM,0.28 µg/mL
CCc1c(Cc2cccc(Cc3nc(SC(C)C)[nH]c(=O)c3CC)c2)nc(SC(C)C)[nH]c1=O,-,EC50,-,cytopathic effect / MTT,MT-4,14.5 µM
COc1cnc(-n2ccnn2)c2[nH]cc(C(=O)C(=O)N3CCC(=C(c4ccccc4)c4cnn(Cc5ccccc5)c4)CC3)c12,-,EC50,-,luciferase,HeLa,<1 µM
C=C(Cl)COc1cc(NC(=S)c2ccsc2C)ccc1C#N,RT-Y181C,EC50,Pyridone-resistant (RT Y181C),syncytia,CEM,0.44 µg/mL
Cc1cc(C)cc(Sc2c(C(=O)NCCO)[nH]c3ccc(Cl)cc23)c1,RT-K103N Y181C,EC50,-,cytopathic effect / MTT,MT-4,1.2 µM

5 of the rows above, restated:

compound,changes,read-out,strain,method,cell line,result
COc1ccnc2[nH]cc(C(=O)C(=O)N3C4CC3CN(C(=O)c3ccccc3)C4)c12,-,EC99,SF162,luciferase,TZM-bl,>>250 µM
Cc1ccc(Sc2c(C(=O)NCCO)[nH]c3ccc(Cl)cc23)c(C)c1,-,EC50,IIIB,cytopathic effect / MTT,MT-4,0.01 µM
O=C(NNCCO)c1[nH]c2ccc(Cl)cc2c1Sc1ccccc1,-,EC50,IIIB,cytopathic effect / MTT,C8166,0.3 µM
Cc1ccc(Sc2c(C(=O)NNCCO)[nH]c3ccc(Cl)cc23)cc1,-,EC50,IIIB,cytopathic effect / MTT,C8166,0.8 µM
COc1ccc(NC(=O)c2ccoc2C)cc1OCC=C(Cl)Cl,-,EC50,IIIB,syncytia,CEM,0.25 µg/mL